# Article PMC10432985, “Different tau fibril types reduce prion level in chronically and de novo infected cells” (The Journal of Biological Chemistry, 2023)
# What was measured:
# [1] = target: tau K18 fibrils (human tau amino acids 244-372) (human, UniProt P10636-8 244-372)
# [2] = target: tau 244-378 fibrils (human tau amino acids 244-378) (human, UniProt P10636-8 244-378)
binder,measurement,setting,value
recombinant mouse PrP(23-231) (natural protein) not shown,EC50,[1],103 nM
same,EC50,[2],174 nM
